The values below come from US4877782A, “Zinc ceftiofur complexes” (The Upjohn Company, priority 1988, dated 1989).

The data set is described as follows: dispersibility in water, organic solvents and vegetable oils. It is filed as physicochemical. The settings on record: granular powders, in words.

As for “zinc ceftiofur sodium complex [Compound I]”, the “dispersibility in water and in common pharmaceutical organic solvents and vegetable oils” value is on record as “readily dispersible in water”.
